Pooled drug test results. Numbers come from NIAID ChemDB, via PubChem.

Common to all: whole-cell or culture tests; organism: HIV-1; measure: fold resistance

An empty or dashed field is not shown. Fold resistance has wild type as its base. Conditions beyond the fields shown may differ between rows.

structure | mutations | cells | method | strain | value
CC(C)CN(C[C@@H](O)[C@H](Cc1ccccc1)NC(=O)O[C@H]1CCOC1)S(=O)(=O)c1ccc(N)cc1 | L10F V32I L33F M46L I54M A71V | MT-4 | p24 / luminescence | NL4-3 | >27
Cc1ccnc2c1NC(=O)c1cccnc1N2C1CC1 | RT-Y181C | CEM + CEM-SS | XTT | Nevirapine-resistant (RT Y181C) | >3800
CC(C)=CCOc1cc(NC(=S)c2ccoc2C)ccc1Cl | RT-V106A | CEM | cytopathic effect | E-2 (RT-V106A) | 3
CCN[C@H]1CO[C@@H]2OCC[C@H](OC(=O)N[C@@H](Cc3cccc(OC)c3)[C@H](O)CN(CC(C)C)S(=O)(=O)c3ccc4nc(NC(C)C)sc4c3)[C@@H]21 | L10I M46L I54V V82A | MT-4 | p24 / luminescence | NL4-3 | 1.3
CC(C)Nc1cccnc1N1CCN(C(=O)c2cc3cc(NS(C)(=O)=O)ccc3[nH]2)CC1 | RT-T139K Y181C Y188D/Y | CEM | cytopathic effect | Q-1 (RT T139K Y181C Y188D/Y) | 367
Cc1cn([C@H]2C[C@H](N=[N+]=[N-])[C@@H](CO)O2)c(=O)[nH]c1=O | L441P | MT-2 | p24 / ELISA | IIIB | 1.6
O=c1[nH]cnc2c1ncn2[C@H]1CC[C@@H](CO)O1 | RT-M41L Y181C M184V T215Y | HT4 + HT4 LacZ-1 | plaque count | RTMN(181 184) (RT M41L Y181C M184V T215Y) | 2.06
N#Cc1cc2[nH]c3ccccc3c2n(-c2ccc([N+](=O)[O-])cc2)c1=O | RT-K103N | HeLa | luciferase | NNRTI-resistant | 0.6
CCOP(=O)(COc1ccc(C[C@H](NC(=O)O[C@H]2CO[C@H]3OCC[C@H]32)[C@H](O)CN(CC(C)C)S(=O)(=O)c2ccc(OC)cc2)cc1)OCC | R41K | MT-2 | p24 / ELISA | IIIB | 1.4
Nc1nc(NC2CC2)c2ncn([C@H]3C=C[C@@H](CO)C3)c2n1 | RT-V118I M184V | HeLa | luciferase | Recombinant | 4.9
Nc1ccn([C@H]2CC[C@@H](CO)O2)c(=O)n1 | RT-D67N T69D | HELA-CD4+ | plaque count | JF8(RT-D67N T69D) | 1.44
Nc1nc(=O)n([C@H]2CS[C@@H](CO)O2)cc1F | RT-M184V | HT4 + HT4 LacZ-1 | plaque count | HXB2 | 15.8
CC(C)CN(C[C@@H](O)[C@H](Cc1ccccc1)NC(=O)O[C@H]1CCO[C@H]2OCC[C@H]21)S(=O)(=O)c1ccc2nc(NC3CC3)sc2c1 | L10I I15V K20R L24I V32I M36I M46I L63P K70Q V82A I84V L89M | MT-4 | p24 / luminescence | NL4-3 | 107
Cc1cc(S(N)(=O)=O)ccc1NC(=O)COc1ccc(Cl)cc1C(=O)c1cc(Cl)cc(C#N)c1 | RT-K103N Y181C | MAGI | β-galactosidase | NNRTI-resistant (RT K103N Y181C) | 2.69
CC[C@H]1C(=O)Nc2ccc(F)cc2N1C(=O)OC(C)C | RT-Y181C | CEM | cytopathic effect | J-2 (RT-Y181C) | 9
CC(C)=CCN1c2cc(Cl)cc3[nH]c(=S)n(c23)C[C@@H]1C | RT-D67N K70R T215Y K219Q | MT-4 |  |  | 0.5
COC(=O)N[C@H](C(=O)N[C@@H](Cc1ccccc1)[C@@H](O)CN(Cc1ccc(-c2ccccn2)cc1)NC(=O)[C@@H](NC(=O)OC)C(C)(C)C)C(C)(C)C | L10I I15V K20R L24I V32I M36I M46I L63P K70Q V82A I84V L89M | MT-4 | p24 / luminescence | NL4-3 | >213
Cn1c2ccccc2c2c1cc(C#N)c(=O)n2-c1ccc([N+](=O)[O-])cc1 | RT-V106I Y188L | HeLa | luciferase | NNRTI-resistant | 0.3
Cc1ccc(S(=O)(=O)N(CC(C)C)C[C@@H](O)[C@H](Cc2ccccc2)NC(=O)O[C@H]2CO[C@H]3OCC[C@H]32)cc1 | K112M K113E V128I M200I H219P I401T R409K D437N L441P | MT-2 | p24 / ELISA | IIIB | 5.4
CCc1c(Sc2ccccn2)n(COCc2ccccc2)c(=O)[nH]c1=O | RT-T139I | CEM + CEM-SS | XTT | Calanolide A-resistant (RT T139I) | 0.25
CC(C)=CCN1Cc2cc(Cl)cc3[nH]c(=S)n(c23)C[C@@H]1C | RT-Y181C | HT4 + HT4 LacZ-1 | plaque count | HXB2 | 40.9
Cc1cn([C@H]2C[C@H](N=[N+]=[N-])[C@@H](CO)O2)c(=O)[nH]c1=O | RT-Y188H | CEM + CEM-SS | XTT | Costatolide-resistant (RT Y188H) | 0.08
CCCN(C)C(=O)Oc1nsnc1-c1c(Cl)ccc(N)c1Cl | RT-T240I | MAGI | MTT | IIIB | 10